# HIV-1 NL4-3 point mutations in integrase: replication capacity

Protein: integrase of HIV-1 NL4-3, numbered from its first residue. The source prints no sequence; the chain below is taken from UniProt P12497, a closely related isolate, and fits the source at the 252 positions it covers.
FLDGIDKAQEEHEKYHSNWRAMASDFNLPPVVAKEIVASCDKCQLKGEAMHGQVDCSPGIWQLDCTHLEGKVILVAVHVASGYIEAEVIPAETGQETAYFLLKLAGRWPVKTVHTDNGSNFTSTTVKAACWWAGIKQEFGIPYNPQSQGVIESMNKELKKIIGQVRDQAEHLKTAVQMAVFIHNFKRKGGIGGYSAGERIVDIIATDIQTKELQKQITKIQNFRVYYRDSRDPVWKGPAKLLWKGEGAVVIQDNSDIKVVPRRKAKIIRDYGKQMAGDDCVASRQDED
"Other frame" gives the effect on an overlapping gene as the source lists it; other overlaps (genes, RNA elements) are not shown.

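Seven fragments of pNL4-3 were mutated by error-prone PCR, and each virus pool was passaged in CEM T cells. Sequencing gave the RC index: frequency after two rounds over frequency in the input plasmid.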

RC index: lower means poorer replication; rough cut-offs are 0.1 (lethal) and 0.2 (tolerated). Each entry names the wild-type residue, its position and the residue put in its place. Input reads are the counts in the plasmid library.

K258E (base A5001G, input reads 304) gave 0.0221. V260E (base T5008A, input reads 238) gave 0.0566. E10V (base A4258T, input reads 196) gave 0.0345. K71I (base A4441T, input reads 335) gave 0.0298. S123G (base A4596G, input reads 298) gave 0.146. For V281M (base G5070A, other frame Vif silent, input reads 421) the result was 0.133. For C43G (base T4356G, input reads 57) the result was 0.158.

With D64G (base A4420G, input reads 203) the assay gave 0.0393. With Q164H (base G4721C, input reads 96) the assay gave 0.0930. For M178L (base A4761T, input reads 277) the result was 0.0322. D64E (base T4421A, input reads 458) gave 0.0392. With E69D (base A4436C, input reads 49) the assay gave 0.0815. K127R (base A4609G, input reads 281) gave 0.0915. With V259A (base T5005C, input reads 177) the assay gave 0.101.

V72A (base T4444C, input reads 270) gave 0.0666. W131S (base G4621C, input reads 104) read 0.0380. I161T (base T4711C, input reads 164) gave 0.109. G106R (base G4545A, input reads 292) read 0.163. D55H (base G4392C, input reads 63) read 0.0634. N155D (base A4692G, input reads 211) gave 0.0339. For V126A (base T4606C, input reads 442) the result was 0.0671.

For V176A (base T4756C, input reads 240) the result was 0.141. For V225A (base T4903C, input reads 238) the result was 0.0757. With F185L (base T4784A, input reads 462) the assay gave 0.0466. I268F (base A5031T, input reads 206) read 0.0327. V88I (base G4491A, input reads 268) read 0.328. With D6E (base T4247A, input reads 415) the assay gave 0.0326. K236E (base A4935G, input reads 394) gave 0.0911.

G189E (base G4795A, input reads 454) gave 0.213. With S24R (base T4301G, input reads 39) the assay gave 0.0578. For D229E (base C4916A, input reads 69) the result was 0.131. For V77F (base G4458T, input reads 194) the result was 0.0720. With V37L (base G4338T, input reads 290) the assay gave 0.0622. With N18I (base A4282T, input reads 795) the assay gave 0.0794. L2V (base T4233G, input reads 61) gave 0.111.

G134V (base G4630T, input reads 257) gave 0.123. E87K (base G4488A, input reads 231) gave 0.294. For K111N (base A4562T, input reads 318) the result was 0.0187. With R262G (base A5013G, input reads 293) the assay gave 0.0536. With I36L (base A4335T, input reads 465) the assay gave 0.0533. For D55G (base A4393G, input reads 155) the result was 0.0773. D207N (base G4848A, input reads 285) read 0.152.

H67Y (base C4428T, input reads 481) gave 0.170. G149E (base G4675A, input reads 296) gave 0.670. With S153T (base T4686A, input reads 280) the assay gave 0.0383. R262S (base A5015T, input reads 199) gave 0.0226. For A175S (base G4752T, input reads 265) the result was 0.0674.

An index over 1, which the authors read as above wild type, was rare (1.9% of all changes in the genome). Nucleotide positions follow pNL4-3. Clones carried about five changes per kilobase, which can drag down the index of neutral changes.

Data from the supplement of Al-Mawsawi et al. 2014, doi:10.1186/s12977-014-0124-6.